Read-outs that look alike come from different tables or passages of the source.
Legend:
SARS-CoV-2-NLuc = assay: A549-hACE2 SARS-CoV2-NLuc 384-Well Assay; settings: read-out: MPro EC50, A549-hACE2 cells, 2 days
Procedure: Example B. A549-hACE2 SARS-CoV2-NLuc 384-Well Assay
A549-hACE2 cell line was maintained in Dulbecco's Minimum Essential Medium (DMEM) (Corning, New York, NY, Cat #15-018CM) supplemented with 10% fetal bovine serum (FBS) (Hyclone, Logan, UT, Cat #SH30071-03), 1× Penicillin-Streptomycin-L-Glutamine (Corning, New York, NY, Cat #30-009-CI) and 10 μg/mL blasticidin (Life Technologies Corporation, Carlsbad, CA, Cat #A11139-03). Cells were passaged 2 times per week to maintain sub-confluent densities and were used for experiments at passage 5-20. SARS Coronavirus 2 recombinant with NanoLuc (SARS-CoV-2-NLuc) was obtained from University of Texas Medical Branch (Galveston, TX). Viral replication was determined in A549-hACE2 cells in the following manner.
Compounds were prepared in 100% DMSO in 384-well polypropylene plates (Greiner, Monroe, NC, Cat #784201) with 8 compounds per plate in grouped replicates of 4 at 10 serially diluted concentrations (1:3). The serially diluted compounds were transferred to low dead volume Echo plates (Labcyte, Sunnyvale, CA, Cat #LP-0200).
The test compounds were spotted to 384-well assay plates (Greiner, Monroe, NC, Cat #781091) at 200 nL per well using an Echo acoustic dispenser (Labcyte, Sunnyvale, CA). A549-hACE2 cells were harvested and suspended in DMEM (supplemented with 2% FBS and 1× Penicillin-Streptomycin-L-Glutamine) and seeded to the pre-spotted assay plates at 10,000 cells per well in 30 μL. SARS-CoV2-NLuc virus was diluted in DMEM (supplemented with 2% FBS and X Penicillin-Streptomycin-L-Glutamine) at 350,000 Infectious Units (IU) per m and 10 μL per well was added to the assay plates containing cells and compounds, for MOI 0.35. The assay plates were incubated for 2 days at 37° C. and 5% CO2. At the end of incubation, Nano-Glo reagent (Promega, Madison, WI, Cat #N1150) was prepared. The assay plates and Nano-Glo reagent were equilibrated to room temperature for at least 30 minutes. 40 μL per well of Nano-Glo reagent was added and the plates were incubated at room temperature for 30 minutes before reading the luminescence signal on an EnVision multimode plate reader (Perkin Elmer, Waltham, MA). Remdesivir was used as positive control and DMSO was used as negative control. Values were normalized to the positive and negative controls (as 000 and 100% replication, respectively) and data was fitted using non-linear regression analysis by Gilead's dose response tool. The EC50 value for each compound was defined as the concentration reducing viral replication by 50%.

[1] = molecular target: recombinant SARS-CoV-2 Main protease (Mpro) (Severe acute respiratory syndrome coronavirus 2 (2019-nCoV) (SARS-CoV-2), UniProt P0DTD1); assay: Cov Mpro Biochemical IC50 Assay; settings: read-out: MPro IC50
Procedure: Example A. Cov Mpro Biochemical IC50 Assay Description
This biochemical assay measured small molecule inhibitor IC50 values against recombinant SARS-CoV-2 Main protease (Mpro). Compounds from 100 μM to 5 nM in 3 fold dilutions were prepared and pre-incubated for 20 minutes while mixing at room temperature with 2× Mpro. The final Mpro concentration was 7.5 nM with the fluorogenic peptide substrate (DABCYL-KTSAVLQ/SGFRKME-EDANS) at its Km value of 40 μM in a reaction volume of 40 μM, Product formation was quantitated in kinetic mode every 2.5 minutes for 8 cycles by monitoring fluorescence at EX/EM wavelength of 340/460. Rates of reaction (slope with background subtracted) from inhibitor wells were normalized to DMSO wells and then curve fitted for IC50 using the PRISM algorithm: log(inhibitor) vs. normalized response—Variable slope The IC50 value for each compound was defined as the concentration reducing enzyme activity by 50%.

[2] = recombinant SARS-CoV-2 Mpro 7.5 nM, fluorogenic peptide substrate 40 μM
[3] = recombinant SARS-CoV-2 Mpro, fluorogenic peptide substrate

| Structure (SMILES) | EC50 (SARS-CoV-2-NLuc; SARS-CoV2-NLuc) | IC50 [1, 2] | EC50 (SARS-CoV-2-NLuc; SARS-CoV-2-NLuc) | IC50 [1, 3] |
| --- | --- | --- | --- | --- |
| CCOc1cc(-c2cc(OC)c(F)cc2C#N)cc2[nH]c(=O)n(-c3cncc4ccccc34)c(=O)c12 | 20 nM | 15.1 nM | – | – |
| COc1ccc(Cl)c(-c2cc3[nH]c(=O)n(-c4cncc5cc(Cl)c(F)cc45)c(=O)c3s2)c1 | 218 nM | 52.3 nM | – | – |
| COc1cc(-c2cc3[nH]c(=O)n(-c4cncc5[nH]c(=O)n(C)c45)c(=O)c3s2)c(Cl)cc1F | > 1000 nM | 15.7 nM | – | – |
| O=C1COc2cc(-c3cccc(Cl)c3-c3ccc4c(=O)n(-c5cncc6ccccc56)c(=O)oc4c3)ccc2N1 | – | – | 22.4 nM | 24.9 nM |
| N#Cc1ccc(-c2cccc(Cl)c2-c2ccc3c(=O)n(-c4cncc5ccccc45)c(=O)[nH]c3c2)cn1 | – | – | 51.7 nM | 29.1 nM |
| COc1ccc(Cl)c(-c2cc3[nH]c(=O)n(-c4cncc5cc(F)c(F)cc45)c(=O)c3s2)c1 | 48 nM | 20.7 nM | – | – |

Reference: patent US20240116946A1 (Gilead Sciences, Inc., priority 2022, published 2024)
